A mixed list of measured activities; the numbers were collected in NIAID ChemDB.

All rows: whole-cell or culture tests; agent: HIV-1

ECn is the concentration giving n% inhibition of infection, replication or growth. Two numbers with a dash give a range or band. An empty or dashed field is not shown. Rows are shuffled and stem from different studies.

SMILES,measure,cells,strain,changes,read by,conditions,result
CCCCC#CCSc1ccccc1OC(C)=O,EC50,MT-2,HXB2 WT,-,cytopathic effect / MTT,-,10 µM
COc1cc(/C=C2\CCC/C(=C\c3ccc(O)c(OC)c3)C2=O)ccc1O,EC50,MT-4,-,-,cytopathic effect / MTT,-,>2.4 µM
CSC[C@H](NC(=O)COc1cccc2cnccc12)C(=O)N[C@@H](Cc1ccccc1)[C@H](O)C(=O)N1CSC(C)(C)[C@H]1C(=O)NC(C)(C)C,EC50,PBMC,AZT-insensitive clinical isolate,-,p24,-,0.01 µM
O=S1(=O)N=Cc2cccn2-c2ccc(Cl)cc21,EC50,MT-4,IIIB,-,cytopathic effect / MTT,-,>7.1 µM
O=C1Nc2ccc(CN3C(=O)N(Cc4ccc5c(c4)C(=O)C(=O)N5)[C@H](Cc4ccccc4)[C@H](O)[C@@H](O)[C@H]3Cc3ccccc3)cc2C1=O,EC50,MT-2,RF,-,-,-,<8.5 µM
Nc1nc(N)c(C=O)c(OCCOCP(=O)(O)O)n1,EC50,CEM,IIIB,-,syncytia,-,1.3 µg/mL
Cc1cc(C)cc(Cc2c(CC(C)C)c(C)[nH]c(=O)c2N(C)C)c1,EC50,MT-4,LAI,-,cytopathic effect / MTT,-,0.016 µM
O=C1N(Cc2ccc3nc[nH]c3c2)[C@H](Cc2ccccc2)[C@H](O)[C@@H](O)[C@@H](Cc2ccccc2)N1Cc1ccc2nc[nH]c2c1,EC50,MT-2,RF,-,-,-,<19 µM
CC(C)=CCN1Cc2cc(Cl)cc3[nH]c(=S)n(c23)C[C@@H]1C,EC50,MT-4,T3-16(RT-Y181C),RT-Y181C,cytopathic effect / XTT,-,2.8 µM
Nc1ccn([C@@H]2O[C@H](CO)C[C@@H]2F)c(=O)n1,EC50,CEM,LAV,-,p24 / ELISA,-,0.92 µg/mL
Cc1cn([C@H]2C=C[C@@H](CO)O2)c(=O)[nH]c1=O,EC50,MAGI (CCR5) + MAGI,HXB2,RT-M184V,β-galactosidase,-,5.6 µM
O=C1c2cccn2-c2ccc(Cl)cc2S(=O)(=O)N1C1CC1,EC50,MT-4,IIIB,-,cytopathic effect / MTT,-,15 µM
CC[C@H](C)[C@H](NC(=O)[C@H](C(C)C)[C@@H](O)[C@H](O)[C@H](CC1CCCCC1)NC(=O)[C@H](Cc1cnc[nH]1)NC(=O)COc1cccc2ccccc12)C(=O)NCc1ccccn1,EC50,Primary lymphocytes + Lymphocytes,-,-,-,-,0.2 µM
Nc1nc(=O)n([C@@H]2CS[C@H](CO)O2)cc1F,EC90,Primary T lymphocytes,-,4xAZT,p24 / ELISA,-,1.2 µM
O=C1N(Cc2ccc3[nH]c(=O)cnc3c2)[C@H](Cc2ccccc2)[C@H](O)[C@@H](O)[C@@H](Cc2ccccc2)N1Cc1ccc2[nH]c(=O)cnc2c1,EC50,MT-2,RF,-,-,-,<7.8 µM
CCCc1c(C)[nH]c(=O)c(N(C)C)c1Cc1cc(C)cc(C)c1,EC50,MT-4,Recombinant,RT-K103N,cytopathic effect / MTT,-,100 µM
O=c1[nH]cnc2c1ncn2[C@H]1CC[C@@H](CO)O1,EC50,MT-2,NL4-3,INTG-G140S,-,-,0.3 µM
Nc1cc(OCCOCP(=O)(O)O)nc(N)n1,EC50,CEM,Clinical isolate C19,RT-M41L V118I L210W T215Y,syncytia,-,7 µg/mL
Cc1cn([C@H]2C[C@H](N=[N+]=[N-])[C@@H](CO)O2)c(=O)[nH]c1=O,EC50,MT-4,IIIB,-,cytopathic effect / XTT,-,0.016 µM
NC(=O)C(c1ccccc1)(c1ccccc1)[C@H]1CCCN(CCc2ccc3c(c2)CCO3)C1,EC50,MT-2,NL4-3,-,cytopathic effect / XTT,-,0.82 µM
CC(C)[C@H](NC(=O)c1ccc2ccccc2n1)C(=O)N[C@@H](Cc1ccccc1)[C@H](O)CN1CC[C@@H](OCc2ccncc2)C[C@H]1C(=O)NC(C)(C)C,EC50,PBMC,Wg3522,-,p24,-,0.015 µM
C[C@H](Cn1cnc2c(N)nc(N)nc21)OCP(=O)(O)O,EC50,Primary lymphocytes + Lymphocytes,-,-,-,-,0.15 µM
O=C(/C=C/c1ccc(O)c(O)c1)c1cccc(C(=O)/C=C/c2ccc(O)c(O)c2)c1,EC50,MT-4,-,-,cytopathic effect / MTT,-,>5 µM
Cc1cn([C@H]2C[C@H](N=[N+]=[N-])[C@@H](CO)O2)c(=O)[nH]c1=O,EC50,MT-2,NL4-3:IN7-3),-,-,-,0.03 µM
CC(C)(C)NC(=O)C1N(C(=O)[C@@H](O)[C@H](Cc2ccccc2)NC(=O)[C@H](CS(C)(=O)=O)NC(=O)COc2cccc3ccccc23)CSC1(C)C,EC90,PBMC,Clinical isolates,-,p24,-,0.05 µM
CCN(CC)C(=O)OCC1CN(C(=O)c2cc(OC)c(OC)c(OC)c2)CCN1C(=O)c1cc(OC)c(OC)c(OC)c1,EC50,Macrophage + Monocytes/macrophages,THI Primary isolate,-,RT activity,-,10 µM
O=C(/C=C(O)/C=C/c1ccc(O)cc1)/C=C/c1ccc(O)cc1,EC50,MT-4,-,-,cytopathic effect / MTT,-,>13 µM
Cc1cn([C@H]2C[C@H](N=[N+]=[N-])[C@@H](CO)O2)c(=O)[nH]c1=O,EC50,CEM + CEM-SS,RF,-,cytopathic effect / MTT,-,0.004 µM
O=C1O[C@H]2[C@@H]3OC(=O)c4cc(O)c(O)c(O)c4-c4c(cc(O)c(O)c4O)C(=O)OC[C@H]2O[C@@H](OC(=O)c2cc(O)c(O)c(O)c2)[C@@H]3OC(=O)c2cc(O)c(O)c3c2[C@@H]2C1=CC(=O)[C@](O)(O3)C2(O)O,EC50,MAGI,NNRTI-resistant (RT Y188H) ARP1011,RT-Y188H,-,-,0.89 µg/mL
CC(C)Nc1cccnc1N1CCN(C(=O)c2cc3cc(NS(C)(=O)=O)ccc3[nH]2)CC1,EC50,PBMC,MDR (RT M41L K103N T215Y) Clinical isolate,RT-M41L K103N T215Y,p24,-,14.8 µM
Cc1cn([C@H]2C[C@H](N=[N+]=[N-])[C@@H](CO)O2)c(=O)[nH]c1=O,EC50,MM + M/M,-,-,-,-,0.02 µM
Nc1ccn([C@H]2CC[C@@H](CO)O2)c(=O)n1,EC50,MT-4,Clinical isolate,AZT-resistant (RT I50V D67N K70R I135V T215Y),-,clinical isolate,0.65 µM
CC(C)=CCN1C(C)CNc2ccc(Cl)cc2S1(=O)=O,EC50,MT-4,IIIB,-,cytopathic effect / MTT,-,>4.8 µM
CCc1cc(NCc2nc3c(Cl)ccc(Cl)c3o2)c(=O)[nH]c1C,EC50,MT-4,RUTZ,-,p24,-,<0.1 µM
O=C1N(Cc2ccc3ncoc3c2)[C@H](Cc2ccccc2)[C@H](O)[C@@H](O)[C@@H](Cc2ccccc2)N1Cc1ccc2ncoc2c1,EC50,MT-2,RF,-,-,-,<0.44 µM
Cc1cn([C@H]2C[C@H](N=[N+]=[N-])[C@@H](COP(=O)(OCCC#N)OC[C@@H]3CC[C@H](n4cnc5c(N)ncnc54)O3)O2)c(=O)[nH]c1=O,EC90,PBMC,LAV,-,RT activity,-,0.248 µM
C#C[C@@]1(CO)C=C[C@H](n2cc(C)c(=O)[nH]c2=O)O1,EC50,MT-4,IIIB,-,cytopathic effect / MTT,-,0.07 µM
CCc1cc(NCc2nc3c(Cl)ccc(Cl)c3o2)c(=O)[nH]c1C,EC90,MT-4,IIIB,-,cytopathic effect / XTT,-,0.38 µM
Cc1ccnc2c1NC(=O)c1cccnc1N2C1CC1,EC50,MAGI,NNRTI-resistant (RT Y188C),RT-Y188C,β-galactosidase,-,2.3 µM
Nc1ccn([C@H]2CC[C@@H](CO)O2)c(=O)n1,EC50,MT-4,IIIB,-,p24,-,0.45 µM
CC(=O)c1ccccc1NC(C(N)=O)c1c(Cl)cccc1Cl,EC90,MT-4,DLV-resistant IIIB (RT-L100I),RT-L100I,p24,-,6.5 µM
CC(C)CCC[C@@H](C)[C@H]1CC[C@H]2[C@@H]3CC[C@H]4C[C@@H](CCC=C(c5cc(Cl)c(O)c(C(=O)O)c5)c5cc(Cl)c(O)c(C(=O)O)c5)CC[C@]4(C)[C@H]3CC[C@]12C,EC50,U-937,RF,-,p24 / RT activity,-,7.4 µM
O=C(O)COc1c(O)c2cc(c1O)C(c1ccc(F)cc1)c1cc(c(O)c(OCC(=O)O)c1O)C(c1ccc(F)cc1)c1cc(c(O)c(OCC(=O)O)c1O)C(c1ccc(F)cc1)c1cc(c(O)c(OCC(=O)O)c1O)C2c1ccc(F)cc1,EC50,CEM,IIIB,-,syncytia,-,10 µg/mL
Cc1c(N)nc(N)nc1OCCOCP(=O)(O)O,EC50,CEM,Clinical isolate C20,RT-M41L D67N V118I M184V L210W T215Y,syncytia,-,1 µg/mL
Nc1nc2cc(CN3C(=O)N(Cc4ccc5sc(N)nc5c4)[C@H](Cc4ccccc4)[C@H](O)[C@@H](O)[C@H]3Cc3ccccc3)ccc2s1,EC50,MT-2,RF,-,-,-,<0.95 µM
Nc1nc(=O)n([C@@H]2CC[C@H](CO)O2)cc1F,EC50,PBMC,LAI,-,RT activity,-,0.0002 µM
O=C(Nc1cc(S(=O)(=O)O)cc2cc(S(=O)(=O)O)c(N=Nc3ccc(N=Nc4c(S(=O)(=O)O)cc5cc(S(=O)(=O)O)cc(NC(=O)c6cccc(Cl)c6Cl)c5c4O)cc3)c(O)c12)c1ccc(Cl)cc1Cl,EC50,MT-2,A018A,-,-,-,0.63–3.2 µg/mL
CCN1C(C)C(=O)Nc2ccc(Cl)cc2S1(=O)=O,EC50,MT-4,IIIB,-,cytopathic effect / MTT,-,≥200 µM
Cc1ccnc2c1NC(=O)c1cccnc1N2C1CC1,EC50,MT-4,118(RT-L100I),RT-L100I,cytopathic effect / XTT,-,1.1 µM
CN=C1CN=C(c2ccc[nH]2)c2cc(Cl)ccc2N1,EC50,CEM/1(N1T-E) + CEM,N1T-E,-,p24,chronic infection,0.01–0.1 µM
CC[C@]1(c2ccccc2)Oc2cccnc2-n2cccc2C1=O,EC50,C8166,-,-,p24,-,0.56 µM
Cc1cn([C@@H]2C[C@@H](N=[N+]=[N-])[C@H](COP(=O)(O)OC[C@H]3O[C@@H](n4cc(C)c(=O)[nH]c4=O)C[C@@H]3N=[N+]=[N-])O2)c(=O)[nH]c1=O,EC50,PBMC,LAV,-,RT activity,-,0.01 µM
Cc1cn([C@H]2C[C@H](N=[N+]=[N-])[C@@H](CO)O2)c(=O)[nH]c1=O,EC50,Macrophage,-,-,p24 / ELISA,-,0.3 µM
O=C1N(Cc2ccc3[nH]ccc3c2)[C@H](Cc2ccccc2)[C@H](O)[C@@H](O)[C@@H](Cc2ccccc2)N1Cc1ccc2[nH]ccc2c1,EC50,MT-2,RF,-,-,-,<0.19 µM
Cc1cn([C@H]2C[C@H](F)[C@@H](CO)O2)c(=O)[nH]c1=O,EC50,PBMC,GW908 AZT-resistant (RT V75I/F77L/F116Y/Q151M),RT-V75I F77L F116Y Q151M,antigen,-,0.0044 µM
CCc1cc(NCc2nc3c(C)ccc(C)c3o2)c(=O)[nH]c1C,EC50,MT-4,RF,-,p24,-,<0.05 µM
O=C1/C(=C/c2ccc(O)c(O)c2)CC/C1=C\c1ccc(O)c(O)c1,EC50,MT-4,-,-,cytopathic effect / MTT,-,>15 µM
Nc1nc2c(ncn2[C@H]2CO[C@@H](CO)O2)c(=O)[nH]1,EC50,MT-2,-,RT-Q151M,cytopathic effect / MTT,-,21 µM
Nc1ccn([C@@H]2O[C@H](CO)C=C2F)c(=O)n1,EC50,CEM,LAV,-,p24 / ELISA,-,10.9 µg/mL
Cc1cn([C@H]2C[C@H](N=[N+]=[N-])[C@@H](CO)O2)c(=O)[nH]c1=O,EC50,CEM + CEM-SS,C,-,cytopathic effect / XTT,-,0.0002 µM
Cc1cn([C@H]2C[C@H](N=[N+]=[N-])[C@@H](COP(=O)(O)OC[C@@H]3CC[C@H](n4cnc5c(=O)[nH]cnc54)O3)O2)c(=O)[nH]c1=O,EC50,PBMC,LAV,-,RT activity,-,0.00007–0.00014 µM
CC(=O)N1CCC(C(=O)N(CCCN2CCC(Cc3ccc(C(N)=O)cc3)CC2)c2ccc(C)c(Cl)c2)CC1,EC50,U87 (CD4+ CCR5+) + U87,R5 subtype F_1 recombinant,-,luciferase,-,0.008 µM
Cc1ccnc2c1NC(=O)c1cccnc1N2C1CC1,EC50,HT4 + HT4 LacZ-1,HIVRTMF (RT L74V Y181C),RT-L74V Y181C T215Y,plaque count,-,3.2 µM
Cc1cn([C@H]2C[C@H](N=[N+]=[N-])[C@@H](CO)O2)c(=O)[nH]c1=O,EC50,MT-2,-,RT-Q151M A62V,cytopathic effect / MTT,-,>10 µM
N#CC[C@H](C1CCCC1)n1cc(-c2ncnc3[nH]ccc23)cn1,EC90,Primary T lymphocytes,-,L74V,p24 / ELISA,-,3.2 µM
CC(C)(C)OC(=O)N[C@@H](Cc1ccccc1)[C@H](O)CNC[C@@H](O)[C@H](Cc1ccc(OCC(=O)N2CCOCC2)cc1)NC(=O)OC(C)(C)C,EC50,MT-2,NL4-3,PR-A71T V82A,p24,-,0.26 µM
C[C@H](COc1cc(N)nc(N)n1)OCP(=O)(O)O,EC50,CEM,Clinical isolate C19,RT-M41L V118I L210W T215Y,syncytia,-,14 µg/mL
Cc1cn([C@H]2C[C@H](N=[N+]=[N-])[C@@H](CO)O2)c(=O)[nH]c1=O,EC50,MT-2,NL4-3,-,p24,-,0.002 µM
Nc1ncnc2c1ncn2[C@H]1CC[C@@H](CO)O1,EC50,PBMC,LAV,-,RT activity,-,0.5 µM
O=C1Cc2cc(CN3C(=O)N(Cc4ccc5c(c4)CC(=O)N5)[C@H](Cc4ccccc4)[C@H](O)[C@@H](O)[C@H]3Cc3ccccc3)ccc2N1,EC50,MT-2,RF,-,-,-,<0.37 µM
CC(C)Nc1cccnc1N1CCN(C(=O)c2cc3cc(NS(C)(=O)=O)ccc3[nH]2)CC1,EC50,H9,IIIB,-,p24,-,0.01 µM
Nc1ncnc2c1ncn2CCOCP(=O)(O)O,EC99,MM + M/M,-,-,-,-,0.5 µM
NC(=O)C(c1ccccc1)(c1ccccc1)[C@H]1CCCN(CCOCc2ccccc2)C1,EC50,MT-2,NL4-3,-,cytopathic effect / XTT,-,0.45 µM
Fc1cccc(F)c1C1SCc2nc3ccccc3n21,EC50,Macrophage,BaL,-,p24,-,0.69 µM
CCc1c(C(=O)c2cc(C)cc(C)c2)n(CC2CC=CC2)c(=O)[nH]c1=O,EC50,CEM + CEM-SS,RF,-,cytopathic effect / XTT,-,0.001 µM
Nc1ccn([C@@H]2CC[C@H](CO)O2)c(=O)n1,EC50,CEM + CEM-SS,LAI,-,-,-,0.42 µM